These results are taken from patent US7666834B2, “Macrocyclic inhibitors of hepatitis C virus” (Tibotec Pharmaceuticals Ltd., priority 2005, dated 2010).

Chains of the proteins cited; added tags and fusions are not shown. Residues count along the entry.
UniProt P27958, 1027-1657 limits assumed: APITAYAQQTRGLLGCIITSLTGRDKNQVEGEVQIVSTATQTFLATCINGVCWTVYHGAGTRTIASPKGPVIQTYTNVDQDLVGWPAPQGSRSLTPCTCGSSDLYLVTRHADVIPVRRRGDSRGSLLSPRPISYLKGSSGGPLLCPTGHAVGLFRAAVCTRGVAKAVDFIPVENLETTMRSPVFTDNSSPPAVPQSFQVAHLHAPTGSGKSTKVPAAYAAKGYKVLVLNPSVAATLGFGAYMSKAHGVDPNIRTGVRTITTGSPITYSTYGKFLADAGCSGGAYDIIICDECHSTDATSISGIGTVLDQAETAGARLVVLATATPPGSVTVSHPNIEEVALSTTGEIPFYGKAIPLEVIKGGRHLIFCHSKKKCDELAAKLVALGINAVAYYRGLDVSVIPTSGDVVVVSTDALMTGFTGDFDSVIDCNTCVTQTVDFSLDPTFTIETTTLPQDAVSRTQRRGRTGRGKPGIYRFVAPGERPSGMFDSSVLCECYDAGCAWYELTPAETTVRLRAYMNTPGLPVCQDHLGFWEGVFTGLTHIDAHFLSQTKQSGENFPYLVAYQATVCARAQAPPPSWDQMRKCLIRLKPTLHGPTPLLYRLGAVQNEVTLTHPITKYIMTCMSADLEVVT

In test [1] the test system is HCV replicons (NS3-NS5B regions of HCV type 1b) in Huh-7 luc/neo cells. Kind of test: Replicon assay (Huh-Luc cells, luciferase readout). Conditions: read-out: EC50 (μM) Replicon assay, three days incubation, luciferase activity. Type of test: cell-based. On the technique in general: A replicon is a self-replicating genome or part of one, used to study replication in cells.

Test [2] concerns the target HCV NS3/4A protease (Hepatitis C virus genotype 1a, UniProt P27958). Conditions: read-out: Ki (nM) Enzymatic assay; full-length NS3 protease 1 nM, 25 μM NS4A cofactor, competitive inhibition model.

On to `Cc1cnc(-c2ccc(C(F)(F)F)cc2NC(=O)O[C@@H]2C[C@H]3C(=O)N[C@]4(C(=O)NS(=O)(=O)C5CC5)C[C@H]4/C=C\CCCCN(C)C(=O)[C@@H]3C2)s1`, for which, in test [1], the half-maximal effective concentration (EC50) was 0.0032 µM. The Ki in test [2] was 1.7 nM.

As to `CN1CCCC/C=C\[C@@H]2C[C@@]2(C(=O)NS(=O)(=O)C2CC2)NC(=O)[C@@H]2C[C@@H](OC(=O)Nc3ccccc3-c3ccccc3)C[C@H]2C1=O`, in test [1], the EC50 came to 4.38 µM. The Ki in test [2] turned out to be 45 nM.

For the compound `Cc1ccn(-c2ccc(C(F)(F)F)cc2NC(=O)O[C@@H]2C[C@H]3C(=O)N[C@]4(C(=O)NS(=O)(=O)C5CC5)C[C@H]4/C=C\CCCCN(C)C(=O)[C@@H]3C2)n1`, the EC50 in test [1] was 0.0706 µM. Besides, the inhibition constant (Ki) in test [2] came to 0.5 nM.

As for `CN1CCCC/C=C\[C@@H]2C[C@@]2(C(=O)NS(=O)(=O)C2CC2)NC(=O)[C@@H]2C[C@@H](OC(=O)Nc3ccccc3-c3ccccc3)CN2C1=O`, the Ki in test [2] was 517 nM.

Regarding `CN1CCCC/C=C\[C@@H]2C[C@@]2(C(=O)NS(=O)(=O)C2CC2)NC(=O)[C@@H]2C[C@@H](OC(=O)Nc3cc(C(F)(F)F)ccc3N3CCCCC3)CN2C1=O`, the concentration for a half-maximal effect (EC50) in test [1] worked out at 4.44 µM. In addition, the inhibition constant Ki in test [2] is 8 nM.

On to `CCOC(=O)c1ccccc1NC(=O)O[C@@H]1C[C@H]2C(=O)N[C@]3(C(=O)NS(=O)(=O)C4CC4)C[C@H]3/C=C\CCCCN(C)C(=O)N2C1`, for which the concentration giving a half-maximal response (EC50) in test [1] is 0.269 µM. In test [2], the Ki is 20 nM.

As to `Cc1csc(-c2ccc(C(F)(F)F)cc2NC(=O)O[C@@H]2C[C@H]3C(=O)N[C@]4(C(=O)NS(=O)(=O)C5CC5)C[C@H]4/C=C\CCCCN(C)C(=O)[C@@H]3C2)n1`, the half-maximal effective concentration (EC50) in test [1] is 0.0074 µM. Further, the Ki in test [2] was 0.1 nM.

Regarding `Cc1ccnn1-c1ccc(C(F)(F)F)cc1NC(=O)O[C@@H]1C[C@H]2C(=O)N[C@]3(C(=O)NS(=O)(=O)C4CC4)C[C@H]3/C=C\CCCCN(C)C(=O)[C@@H]2C1`, the half-maximal effective concentration (EC50) in test [1] was determined as 7.58 µM. In test [2], the inhibition constant Ki came to 38 nM.

For the compound `CN1CCCC/C=C\[C@@H]2C[C@@]2(C(=O)NS(=O)(=O)C2CC2)NC(=O)[C@@H]2C[C@@H](OC(=O)Nc3ccccc3N3CCCCC3)C[C@H]2C1=O`, the EC50 in test [1] came to 0.111 µM. Moreover, the Ki in test [2] amounted to 5 nM.

With `Cc1nc(-c2ccc(C(F)(F)F)cc2NC(=O)O[C@@H]2C[C@H]3C(=O)N[C@]4(C(=O)NS(=O)(=O)C5CC5)C[C@H]4/C=C\CCCCN(C)C(=O)[C@@H]3C2)sc1C`, in test [1], the concentration giving a half-maximal response (EC50) came out at 0.001 µM. Also, the Ki in test [2] came out at 1.7 nM.

Turning to `CN1CCCC/C=C\[C@@H]2C[C@@]2(C(=O)NS(=O)(=O)C2CC2)NC(=O)[C@@H]2C[C@@H](OC(=O)Nc3cc(-n4cccn4)ccc3-n3cccn3)C[C@H]2C1=O`, the EC50 in test [1] came out at 1.51 µM. Further, the Ki in test [2] turned out to be 9 nM.

For the compound `CC(C)c1csc(-c2ccc(C(F)(F)F)cc2NC(=O)O[C@@H]2C[C@H]3C(=O)N[C@]4(C(=O)NS(=O)(=O)C5CC5)C[C@H]4/C=C\CCCCN(C)C(=O)[C@@H]3C2)n1`, in test [1], the EC50 was determined as 0.039 µM. Besides, the inhibitory constant (Ki) in test [2] worked out at 1.9 nM.

Turning to `CN1CCCC/C=C\[C@@H]2C[C@@]2(C(=O)NS(=O)(=O)C2CC2)NC(=O)[C@@H]2C[C@@H](OC(=O)Nc3ccccc3-c3ccsc3)CN2C1=O`, the Ki in test [2] was found to be 1280 nM.

On to `Cc1ccn(-c2ccc(F)cc2NC(=O)O[C@@H]2C[C@H]3C(=O)N[C@]4(C(=O)NS(=O)(=O)C5CC5)C[C@H]4/C=C\CCCCN(C)C(=O)[C@@H]3C2)n1`, for which the EC50 in test [1] turned out to be 0.237 µM. The inhibitory constant (Ki) in test [2] amounted to 1.4 nM.

For `Cc1ccc(-c2ccccc2NC(=O)O[C@@H]2C[C@H]3C(=O)N[C@]4(C(=O)NS(=O)(=O)C5CC5)C[C@H]4/C=C\CCCCN(C)C(=O)N3C2)o1`, the 50% effective concentration (EC50) in test [1] turned out to be 5.65 µM. The Ki in test [2] was 31.6 nM.

A word on the EC50: it is the concentration giving half of the maximal effect. As a reminder, the Ki is the dissociation constant of the complex between target and ligand, obtained from inhibition or displacement.
